Values quoted from earlier work as cited in paper PMC10343017.

Protein sequences, listed by entry. Tags and fused reporters are not part of them. Residues count along the entry.
UniProt Q9H6X2, 33-321: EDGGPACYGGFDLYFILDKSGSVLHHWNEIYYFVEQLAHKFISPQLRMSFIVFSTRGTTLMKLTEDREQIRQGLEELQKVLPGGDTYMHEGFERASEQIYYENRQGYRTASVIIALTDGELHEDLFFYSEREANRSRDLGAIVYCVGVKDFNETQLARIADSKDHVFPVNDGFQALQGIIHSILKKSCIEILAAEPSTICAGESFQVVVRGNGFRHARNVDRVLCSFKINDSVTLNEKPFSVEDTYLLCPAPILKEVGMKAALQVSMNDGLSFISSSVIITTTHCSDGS

Target: TEM8 (Homo sapiens) (UniProt Q9H6X2)

In the case of “protective antigen (from UniProt P13423)”, the Kd is listed as 1.1 µM.
